Results of unrelated studies side by side (data: NIAID ChemDB).

Common to all: growth or infection tests; organism: HIV-1

ECn: concentration that inhibits the pathogen or its effect by n%.

{"structure": "NC(=O)C[C@H](NC(=O)c1ccc2ccccc2n1)C(=O)N[C@@H](Cc1ccccc1)[C@H](O)CN(Cc1ccccc1)S(=O)(=O)c1ccc(-c2ccon2)s1", "read by": "p24", "cell line": "CEM", "read-out": "EC50", "strain": "IIIB", "value": "<1 µM"}
{"structure": "COc1cnc(-c2cncnc2)c2[nH]cc(C(=O)C(=O)N3CCC(=C(C#N)c4ccccc4)CC3)c12", "read by": "luciferase", "cell line": "HeLa", "read-out": "EC50", "value": "<1 µM"}
{"structure": "COc1ccc2c(c1)C(=O)C(C1=C(O)c3ccccc3C(=O)C1=O)=C(Cl)C2=O", "read by": "cytopathic effect / MTT", "cell line": "CEM", "read-out": "EC50", "strain": "IIIB", "value": "6.2 µM"}
{"structure": "COc1ccccc1C[C@H](C[C@H](O)[C@H](Cc1ccccc1)NC(=O)OC(C)(C)C)C(=O)N[C@H](C(=O)NCCN(C)C)C(C)C", "read by": "RT activity", "cell line": "MT-2", "read-out": "EC50", "strain": "MN", "value": "<3 µM"}
{"structure": "COc1cnc(-c2cnccn2)c2[nH]cc(C(=O)C(=O)N3CCC(=C(c4ccccc4)c4cnco4)CC3)c12", "read by": "luciferase", "cell line": "HeLa", "read-out": "EC50", "value": "<1 µM"}
{"structure": "COc1ccc2c(c1)C(=O)C(C1=C(O)c3ccccc3C(=O)C1=O)=C(I)C2=O", "read by": "cytopathic effect / MTT", "cell line": "CEM", "read-out": "EC50", "strain": "IIIB", "value": "4.2 µM"}
{"structure": "CC1=C(C(=O)Nc2ccc(Cl)cc2)SCCS1", "read by": "cytopathic effect / XTT", "cell line": "CEM + CEM-SS", "read-out": "EC50", "strain": "IIIB", "value": "0.0355 µg/mL"}
{"structure": "COC1=C(C2=C(Cl)C(=O)c3ccccc3C2=O)C(=O)c2ccc3c(c2C1=O)C=CC(C)(C)O3", "read by": "cytopathic effect / MTT", "cell line": "CEM", "read-out": "EC50", "strain": "IIIB", "value": "1.8 µM"}
{"structure": "CCc1c(Cc2ccccc2)n(COCCc2ccccc2)c(=O)[nH]c1=O", "mutations": "K103R/V179D/P225H", "read by": "MTT", "cell line": "MT-4", "read-out": "EC50", "strain": "EFVR", "value": ">43 µM"}
{"structure": "CN(c1[nH]c(=O)c(O)c2c1CCN(Cc1ccc(F)cc1)C2=O)S(C)(=O)=O", "read by": "p24", "cell line": "MT-4", "read-out": "EC95", "value": "≤10 µM"}
{"structure": "CCCCCCCCCCCCCCNC(=O)C(CO[C@@H]1O[C@H](CO)[C@H](O)[C@H](O)[C@H]1O)NC(=O)CC(=O)NCCS(=O)(=O)O", "read by": "cytopathic effect / MTT", "cell line": "CEM + CEM-SS", "read-out": "EC50", "strain": "LAI", "value": "50 µM"}
{"structure": "COc1cnc(-n2cnc(C)n2)c2[nH]cc(C(=O)C(=O)N3CCC(=C(c4ccccc4)c4nnc(C(C)C)o4)CC3)c12", "read by": "luciferase", "cell line": "HeLa", "read-out": "EC50", "value": "<1 µM"}
{"structure": "COc1ccc2c(c1)C(=O)C(Cl)=C(C1=C(N)C(=O)c3ccccc3C1=O)C2=O", "read by": "cytopathic effect / MTT", "cell line": "CEM", "read-out": "EC50", "strain": "IIIB", "value": "2.2 µM"}
{"structure": "CC(C)[C@H](NC(=O)[C@H](Cc1ccccc1)C[C@H](O)[C@H](Cc1ccccc1)NC(=O)OC(C)(C)C)C(=O)N[C@@H](Cc1ccccc1)C(=O)N1CCOCC1", "read by": "RT activity", "cell line": "MT-2", "read-out": "EC90", "strain": "MN", "value": "0.03 µM"}
{"structure": "CCOCn1c(Cc2ccc(OC)c(OC)c2)c(CC)c(=O)[nH]c1=O", "mutations": "K103N/Y181C", "read by": "MTT", "cell line": "MT-4", "read-out": "EC50", "strain": "A17", "value": ">100 µM"}
{"structure": "CC(C)CN(C[C@@H](O)[C@H](Cc1ccccc1)NC(=O)O[C@H]1CCOC1)S(=O)(=O)c1ccc(Cl)c(Cl)c1", "read by": "p24", "cell line": "CEM", "read-out": "EC50", "strain": "IIIB", "value": "<1 µM"}
{"structure": "CCc1c(Cc2ccc(C)cc2)n(COCCc2ccccc2)c(=O)[nH]c1=O", "mutations": "K103N/Y181C", "read by": "MTT", "cell line": "MT-4", "read-out": "EC50", "strain": "A17", "value": ">60 µM"}
{"structure": "CC(C)[C@H](NC(=O)[C@H](Cc1ccc2c(c1)OCO2)C[C@H](O)[C@H](Cc1ccccc1)NC(=O)OC(C)(C)C)C(=O)NCCN(C)C", "read by": "RT activity", "cell line": "MT-2", "read-out": "EC90", "strain": "MN", "value": "0.1 µM"}
{"structure": "O=C(NC1CC1)c1[nH]c(=O)c(O)c2c1CCN(Cc1ccc(F)cc1)C2=O", "read by": "p24", "cell line": "MT-4", "read-out": "EC50", "value": "<10 µM"}
{"structure": "CC1=C(C(=O)Nc2cc(C(=O)OC(C)C)c(Cl)cc2F)SCCO1", "read by": "cytopathic effect / XTT", "cell line": "MT-2/MT2(HIV-1) + MT-2", "read-out": "EC50", "strain": "IIIB", "value": "0.014 µg/mL"}
{"structure": "COc1ccc2c(c1)C(=O)C(Br)=C(C1=C(O)c3ccccc3C(=O)C1=O)C2=O", "read by": "cytopathic effect / MTT", "cell line": "CEM", "read-out": "EC50", "strain": "IIIB", "value": "2 µM"}
{"structure": "COCCNC(=O)[C@@H](NC(=O)[C@H](Cc1ccc(OC)c(OC)c1)C[C@H](O)[C@H](Cc1ccccc1)NC(=O)OC(C)(C)C)C(C)C", "read by": "RT activity", "cell line": "MT-2", "read-out": "EC50", "strain": "MN", "value": "<0.1 µM"}
{"structure": "CNC(=O)c1[nH]c(=O)c(O)c2c1CCN(Cc1ccc(F)cc1)C2=O", "read by": "p24", "cell line": "MT-4", "read-out": "EC95", "value": "≤10 µM"}
{"structure": "CCc1c(Cc2cc(C)cc(C)c2)n(COCCc2ccccc2)c(=O)[nH]c1=O", "read by": "MTT", "cell line": "MT-4", "read-out": "EC50", "strain": "IIIB", "value": "0.03 µM"}
{"structure": "CC(C)[C@H](NC(=O)[C@H](Cc1ccc(O)cc1)C[C@H](O)[C@H](Cc1ccccc1)NC(=O)OC(C)(C)C)C(=O)N[C@@H](Cc1ccccc1)C(=O)N1CCOCC1", "read by": "RT activity", "cell line": "MT-2", "read-out": "EC90", "strain": "MN", "value": "0.3 µM"}
{"structure": "CC(=O)Nc1cc(S(=O)(=O)N(CC(C)C)C[C@@H](O)[C@H](Cc2ccccc2)NC(=O)OC(C)(C)C)ccc1F", "read by": "p24", "cell line": "CEM", "read-out": "EC50", "strain": "IIIB", "value": "<10 µM"}
{"structure": "N#CC(=C1CCN(C(=O)C(=O)c2c[nH]c3c(-c4cncc(N)n4)ccnc23)CC1)c1ccccc1", "read by": "luciferase", "cell line": "HeLa", "read-out": "EC50", "value": "<1 µM"}
{"structure": "CCc1c(Cc2ccc(OC)c(OC)c2)n(COCCCc2ccccc2)c(=O)[nH]c1=O", "mutations": "K103N/Y181C", "read by": "MTT", "cell line": "MT-4", "read-out": "EC50", "strain": "A17", "value": ">38 µM"}
{"structure": "CC(C)=CCCC1(C)C=Cc2c(ccc3c2C(=O)C(=O)C(C2=C(I)C(=O)c4ccccc4C2=O)=C3O)O1", "read by": "cytopathic effect / MTT", "cell line": "CEM", "read-out": "EC50", "strain": "IIIB", "value": "1.7 µM"}
{"structure": "CC(C)NC(=O)c1[nH]c(=O)c(O)c2c1CCN(Cc1ccc(F)cc1)C2=O", "read by": "p24", "cell line": "MT-4", "read-out": "EC50", "value": "<10 µM"}
{"structure": "COc1ccc(C[C@H](C[C@H](O)[C@H](Cc2ccccc2)NC(=O)OC(C)(C)C)C(=O)N[C@H](C(=O)N[C@@H](Cc2ccccc2)C(=O)N2CCOCC2)C(C)C)c(OC)c1", "read by": "RT activity", "cell line": "MT-2", "read-out": "EC90", "strain": "MN", "value": "0.03 µM"}
{"structure": "CCN(CC)C(=O)c1[nH]c(=O)c(O)c2c1CCN(Cc1ccc(F)cc1)C2=O", "read by": "p24", "cell line": "MT-4", "read-out": "EC50", "value": "<10 µM"}
{"structure": "Cc1cc(C(=O)Nc2ccc(Cl)c(C(=O)OC(C)C)c2)c(C)o1", "read by": "cytopathic effect / XTT", "cell line": "CEM", "read-out": "EC50", "strain": "IIIB", "value": "0.00042 µg/mL"}
{"structure": "CC(C)=CCC[C@]1(C)C=Cc2c(ccc3c2C(=O)C(=O)C(C2=C(Cl)C(=O)c4ccccc4C2=O)=C3O)O1", "read by": "cytopathic effect / MTT", "cell line": "CEM", "read-out": "EC50", "strain": "IIIB", "value": "0.4 µM"}
{"structure": "CN(C)C1=C(C#N)/C(=C2/C(C#N)=C(N(C)C)N(c3ccc([N+](=O)[O-])cc3)c3c2n(C)c2ccccc32)c2c(c3ccccc3n2C)N1c1ccc([N+](=O)[O-])cc1", "mutations": "RT-Y181C", "read by": "cytopathic effect / XTT", "cell line": "CEM + CEM-SS", "read-out": "EC50", "strain": "N119 nevirapine-resistant (RT Y181C)", "value": "1.01–9.73 µM"}
{"structure": "CC(=O)Nc1cc(S(=O)(=O)N(CC(C)C)C[C@@H](O)[C@H](Cc2ccccc2)NC(=O)OC2CCOC2)ccc1F", "read by": "p24", "cell line": "CEM", "read-out": "EC50", "strain": "IIIB", "value": "<1 µM"}
{"structure": "COc1ncc(OC)c2c(C(=O)C(=O)N3CCC(=C(F)c4ccccc4)CC3)c[nH]c12", "read by": "luciferase", "cell line": "HeLa", "read-out": "EC50", "value": "<1 µM"}
{"structure": "O=C(N[C@@H](Cc1ccccc1)[C@H](O)CN(CC1CCCC1)S(=O)(=O)c1ccc(Cl)cc1)O[C@H]1CCOC1", "read by": "p24", "cell line": "CEM", "read-out": "EC90", "strain": "IIIB", "value": "≤0.1 µM"}
{"structure": "CCCc1cc(=O)oc2c3c(c4c(c12)OC(C)(C)CC4)O[C@@H](C)[C@H](C)[C@@H]3O", "mutations": "RT-Y181C", "read by": "XTT", "cell line": "CEM + CEM-SS", "read-out": "EC50", "strain": "NL4-3", "value": "<0.06 µM"}
{"structure": "COc1ncc(OC)c2c(C(=O)C(=O)N3CCC(=C(C#N)c4nc5ccccc5s4)CC3)c[nH]c12", "read by": "luciferase", "cell line": "HeLa", "read-out": "EC50", "value": ">5 µM"}
{"structure": "CCCOC(=O)c1cc(NC(=S)OC(C)C)ccc1Cl", "read by": "cytopathic effect / XTT", "cell line": "CEM", "read-out": "EC50", "strain": "IIIB", "value": "0.0000443 µg/mL"}
{"structure": "CCOCn1c(Cc2ccccc2)c(C(C)C)c(=O)[nH]c1=O", "read by": "MTT", "cell line": "MT-4", "read-out": "EC50", "strain": "IIIB", "value": "0.03 µM"}
{"structure": "COCCNC(=O)[C@@H](NC(=O)[C@H](Cc1ccc(OC)cc1)C[C@H](O)[C@H](Cc1ccccc1)NC(=O)OC(C)(C)C)C(C)C", "read by": "RT activity", "cell line": "MT-2", "read-out": "EC90", "strain": "MN", "value": "0.03 µM"}
{"structure": "CC(=O)N(C)c1c2c(c(O)c(=O)n1C)C(=O)N(Cc1ccc(F)cc1)CC2", "read by": "p24", "cell line": "MT-4", "read-out": "EC50", "value": "<10 µM"}
{"structure": "O=C(O)CCCCCCCCCCCCC(=O)NC(CO[C@@H]1O[C@H](CO)[C@H](O)[C@H](O)[C@H]1O)C(=O)NCCOS(=O)(=O)O", "read by": "cytopathic effect / MTT", "cell line": "CEM + CEM-SS", "read-out": "EC50", "strain": "LAI", "value": "10 µM"}
{"structure": "O=C(C(=O)N1CCC(=C(Br)c2ccccc2)CC1)c1c[nH]c2c(Cl)ccnc12", "read by": "luciferase", "cell line": "HeLa", "read-out": "EC50", "value": "<1 µM"}
{"structure": "CC(=O)Nc1nc(C)c(S(=O)(=O)N(Cc2ccccc2)C[C@@H](O)[C@H](Cc2ccccc2)NC(=O)[C@H](CC(N)=O)NC(=O)c2ccc3ccccc3n2)s1", "read by": "p24", "cell line": "CEM", "read-out": "EC50", "strain": "IIIB", "value": "<1 µM"}
{"structure": "O=C(O)CCCCCCCCCCCCCNC(=O)C(CO[C@@H]1O[C@H](CO)[C@H](O)[C@H](O)[C@H]1O)NC(=O)CCCCCCCCCCC(=O)O", "read by": "cytopathic effect / MTT", "cell line": "CEM + CEM-SS", "read-out": "EC50", "strain": "LAI", "value": ">100 µM"}
{"structure": "CCc1c(Cc2ccc(C)cc2)n(COCc2ccccc2)c(=O)[nH]c1=O", "mutations": "K103N/Y181C", "read by": "MTT", "cell line": "MT-4", "read-out": "EC50", "strain": "A17", "value": ">44 µM"}
{"structure": "CC(=O)Nc1ccc(S(=O)(=O)N(CC(C)C)C[C@@H](O)[C@H](Cc2ccccc2)NC(=O)[C@@H](NC(=O)OCc2ccccn2)C(C)C)cc1", "read by": "p24", "cell line": "CEM", "read-out": "EC50", "strain": "IIIB", "value": "<1 µM"}

A second listing of 3 rows from above:

structure | mutations | read by | cell line | read-out | strain | value
COc1ccccc1C[C@H](C[C@H](O)[C@H](Cc1ccccc1)NC(=O)OC(C)(C)C)C(=O)N[C@H](C(=O)NCCN(C)C)C(C)C | - | RT activity | MT-2 | EC50 | MN | <3 µM
O=C(O)CCCCCCCCCCCCC(=O)NC(CO[C@@H]1O[C@H](CO)[C@H](O)[C@H](O)[C@H]1O)C(=O)NCCOS(=O)(=O)O | - | cytopathic effect / MTT | CEM + CEM-SS | EC50 | LAI | 10 µM
COc1ccc2c(c1)C(=O)C(C1=C(O)c3ccccc3C(=O)C1=O)=C(I)C2=O | - | cytopathic effect / MTT | CEM | EC50 | IIIB | 4.2 µM

Blank or dashed fields: not listed here. Two numbers with a dash give a range or band. Neighbouring rows are from separate reports.